Results of unrelated studies side by side (data: NIAID ChemDB).

All rows: cytotoxicity tests; read-out: CC50

Rows are shuffled and stem from different studies. CCn is the concentration with n% toxicity to the cells. An empty or dashed field is not shown.

| compound | cell line | method | result |
|---|---|---|---|
| CCOC(=O)COc1ccccc1CN(C(=O)c1ccc(-c2ccc3c(c2)OCO3)cc1)C(C)C | HepG2 | - | >20 µM |
| COc1ccc(C2C(C(=O)/C=C/c3ccc(F)cc3)=C(/C=C/c3ccc(F)cc3)N=C3SC=C(C)N32)cc1 | C1008 (Vero cells) | resazurin | 261 µg/mL |
| COc1nsc(-c2ccccc2)c1C#N | HEP-2 | - | 25 µM |
| COc1ccc(Cc2cc(C3CCN(C(=O)c4ccc5c(c4)OCO5)CC3)nc(N)n2)cc1OC | Jurkat cells (PMA-stimulated) | - | 0.6 µM |
| CCOC(=O)[C@@]1(C)CC[C@]2(C)CC[C@]3(C)C(=CC(=O)[C@@H]4[C@@]5(C)CC/C(=N\OCc6ccc(F)cc6)C(C)(C)[C@@H]5CC[C@]43C)[C@@H]2C1 | K562 | MTT | 13.26 µM |
| O=C(NCCc1cncc(-n2ccnc2)n1)NCc1ccc(Cl)c(Cl)c1 | PBMC | - | 50 µM |
| Nc1c(N2CC[N+]3(CC2)CC[N+]2(CCN(c4nc[nH]c(=O)c4N)CC2)CC3)nc[nH]c1=O | K562 | - | >82.4 µg/mL |
| CC/C=C/c1ccc2ccccc2n1 | CEM-4fx | MTT | 5.5 µM |
| O=C(NCCc1ccc2c(n1)NCCC2)NCc1cccc(F)c1 | PBMC | - | 50 µM |
| CC(C)N(Cc1cccc(OCCCCCC(=O)OC(=O)O)c1)C(=O)c1ccc(-c2cccc([N+](=O)[O-])c2)cc1 | BJ | - | >20 µM |
| CCOC(=O)[C@@]1(C)CC[C@]2(C)CC[C@]3(C)C(=CC(=O)[C@@H]4[C@@]5(C)CC/C(=N\OCc6ccccc6Br)C(C)(C)[C@@H]5CC[C@]43C)[C@@H]2C1 | K562 | MTT | 53.31 µM |
| COc1cc2c(cc1OC)C(CC1(C)OCCO1)=NCC2 | HEK 293 | - | <7.5 µM |
| OC[C@H]1O[C@@H](n2ccc3c(-c4cccc5c4oc4ccccc45)nc(Cl)nc32)C(O)C1O | CEM-DNR leukemia cells | MTT | 30.9 µM |
| Cc1nc(N2CC[N+]3(CC2)CC[N+]2(CCN(c4nc(C)[nH]c(=O)c4[N+](=O)[O-])CC2)CC3)c([N+](=O)[O-])c(=O)[nH]1 | K562 | - | >331.4 µg/mL |
| CSc1nsc(C2CCCCC2)c1C#N | L929 | - | 50 µM |
| Cc1ccc(-c2ccccc2OCCCCCOc2cccc(NC(N)=S)c2)cc1 | Ava5-EG(delta4AB)SEAP | MTS | >1 µM |
| CC(C)c1ccc2c(c1)c(=O)cc(-c1cccs1)n2C | HeLa S3 | MTT | 16 µg/mL |
| O=C(CCc1ccc2c(n1)NCCC2)NCCc1ccc(Cl)c(Cl)c1 | PBMC | - | 23 µM |
| CC1=CSC2=NC(/C=C/c3cccc(Cl)c3)=C(C(=O)/C=C/c3cccc(Cl)c3)C(c3ccc(Cl)cc3)N12 | C1008 (Vero cells) | resazurin | 317.3 µg/mL |
| NC(=S)Nc1cccc(OCCCCCOc2ccccc2-c2ccc(Cl)cc2)c1 | Ava5-EG(delta4AB)SEAP | MTS | >1 µM |
| COc1ccc(Cc2cc(C3CCN(C(=O)c4ccc5c(c4)CCO5)CC3)nc(N)n2)cc1 | Jurkat cells (PMA-stimulated) | - | >5 µM |
| CSc1nsc(-c2ccccn2)c1C#N | HEP-2 | - | 50 µM |
| CCCCc1ccc(Nc2ncnc3c2cnn3-c2ccc(F)cc2F)cc1 | HUH 9B | - | >50 µM |
| CCCCCCCCCCCCCCCCc1ccc2ccccc2n1 | CEM-4fx | MTT | >300 µM |
| CCCNc1ccc2c(c1)Cc1cc(NC(N)=S)ccc1-2 | Ava5-EG(delta4AB)SEAP | MTS | >1 µM |
| CC1=CSC2=NC(/C=C/c3ccccc3)=C(C(=O)/C=C/c3ccccc3)C(c3ccc(Cl)cc3)N12 | C1008 (Vero cells) | resazurin | 320 µg/mL |
| COC(=O)/C=C/c1ccc2cc(C)ccc2n1 | CEM-4fx | MTT | 30.6 µM |
| COc1ccc(Cc2cc(C3CCN(C(=O)c4ccc5c(c4)OCO5)CC3)no2)cc1 | Jurkat cells (PMA-stimulated) | - | >5 µM |
| S=c1cc(-c2ccccc2)s[nH]1 | L929 | - | 90 µM |
| Cc1ccc(-n2ncc3c(Nc4ccc(N5CCOCC5)c(F)c4)ncnc32)c(C)c1 | HUH 9B | - | >50 µM |
| NC(=S)Nc1cccc(NCCCCCc2ccccc2)c1 | Ava5-EG(delta4AB)SEAP | MTS | >1 µM |
| O=C(NCCc1ccccn1)NCc1ccc(Cl)c(Cl)c1 | PBMC | - | 50 µM |
| OC[C@H]1O[C@@H](n2ccc3c(-c4cccs4)nc(F)nc32)C(O)C1O | CCRF-CEM leukemia cells | MTT | 38.4 µM |
| CCn1c(-c2ccsc2)cc(=O)c2cc(C(C)C)ccc21 | HELA-OHIO | MTT | 15 µg/mL |
| CCOC(=O)[C@@]1(C)CC[C@]2(C)CC[C@]3(C)C(=CC(=O)[C@@H]4[C@@]5(C)CC/C(=N\OCc6ccccc6C#N)C(C)(C)[C@@H]5CC[C@]43C)[C@@H]2C1 | CT26 | MTT | 76.52 µM |
| OC[C@H]1O[C@@H](n2ccc3c(-c4cc5ccccc5o4)nc(F)nc32)C(O)C1O | CEM-DNR leukemia cells | MTT | 37.7 µM |
| COc1ccc(Cc2cc(C3CCN(C(=O)c4ccc5ocnc5c4)CC3)nc(N)n2)cc1 | Jurkat cells (PMA-stimulated) | - | >5 µM |
| CCOC(=O)c1cnc(SC)nc1N1CC[N+]2(CC1)CC[N+]1(CCN(c3nc(SC)ncc3C(=O)OCC)CC1)CC2 | GMK | - | >290 µg/mL |
| CCCCC(=O)OC1CC(OC(C)C(C)C(O)C(C)C(O)C(C)C2OC(=O)/C=C/CC(O)CC(O)CC(O)CCC(C)C(O)C[C@@]3(O)O[C@H](CC(O)CC(OC(=O)CC(=O)O)CCCC(O)C4OC4C2C)C[C@H](O)[C@H]3O)OC(C)C1O | P-388 | - | >100 µg/mL |
| CC(C)N(Cc1cccc(OCCCCCC(=O)OC(=O)O)c1)C(=O)c1ccc(-c2ccsc2)cc1 | RAJI | - | >20 µM |
| CCCCCc1ccc2ccccc2n1 | CEM-4fx | MTT | 7.5 µM |
| Cc1cc2c(O[C@H]3O[C@H](CO)[C@@H](O)[C@H]3O)ccc(O)c2c(=O)o1 | SW-480 | MTT | >40 µg/mL |
| Cc1ccc(-n2ncc3c(Nc4ccc5[nH]ccc5c4)ncnc32)c(C)c1 | HUH 9B | - | 20 µM |
| CCOC(=O)COc1ccc(CO)cc1 | RAJI | - | >20 µM |
| O=C(NCCc1cccc(-n2ccnc2)n1)Nc1ccc(Cl)nc1 | PBMC | - | 50 µM |
| CCCc1ccc2ccccc2n1 | CEM-4fx | MTT | 84 µM |
| C[C@@H]1C[C@@H](O)c2c(O[C@H]3O[C@H](CO)[C@@H](O)[C@H]3O)cccc2O1 | SMMC-7721 | MTT | >40 µg/mL |
| CSc1nsc(-c2ccc(OS(=O)(=O)c3ccc(C)cc3)cc2)c1C#N | L929 | - | 25 µM |
| Cc1nc(N2CC[N+]3(CC2)CC[N+]2(CCNCC2)CC3)c([N+](=O)[O-])c(N2CC[N+]3(CC2)CC[N+]2(CCNCC2)CC3)n1 | GMK | - | >571.8 µg/mL |
| CCOC(=O)[C@@]1(C)CC[C@]2(C)CC[C@]3(C)C(=CC(=O)[C@@H]4[C@@]5(C)CC/C(=N\OCc6ccccc6Cl)C(C)(C)[C@@H]5CC[C@]43C)[C@@H]2C1 | CT26 | MTT | 31.36 µM |
| O=C(NCCc1ccc2c(n1)NCCC2)Nc1ccc(F)c(C(F)(F)F)c1 | PBMC | - | 2.4 µM |
| CCn1c(-c2ccccc2)c(C)c(=O)c2c(C)c(OCC(C)C)ccc21 | HeLa S3 | MTT | >5 µg/mL |
| COc1ccc(CCNC(=O)CCO[Si](C)(C)C(C)(C)C)cc1OC | RAJI | - | <7.5 µM |
| O=C(NCCc1ccc2c(n1)NCCC2)NCCc1ccc2c(n1)NCCC2 | PBMC | - | 8.8 µM |
| CSc1nsc(-c2ccc(C)cc2)c1C#N | L929 | - | 18 µM |
| COc1ccc(OC)c(Cc2cc(C3CCN(C(=O)c4ccc5c(c4)OCO5)CC3)nc(N)n2)c1 | Jurkat cells (PMA-stimulated) | - | 0.2 µM |
| COc1ccc(C2C(C(=O)/C=C/c3cccs3)=C(/C=C/c3cccs3)N=C3SC=C(C)N32)cc1 | C1008 (Vero cells) | resazurin | 235 µg/mL |
| OC[C@H]1O[C@@H](n2ccc3c(-c4ccco4)nc(F)nc32)C(O)C1O | MRC-5 fibroblast | MTT | 135.8 µM |
| CCn1c(-c2ccccc2)c(C)c(=O)c2cc(OCC(C)C)c(C)cc21 | HeLa S3 | MTT | >4 µg/mL |
| O=C(NCCc1ccc2c(n1)NCCC2)NCc1ccc(F)cc1 | PBMC | - | 50 µM |
| CCOC(=O)[C@@]1(C)CC[C@]2(C)CC[C@]3(C)C(=CC(=O)[C@@H]4[C@@]5(C)CC/C(=N\OCc6ccc(C)cc6)C(C)(C)[C@@H]5CC[C@]43C)[C@@H]2C1 | K562 | MTT | 53.89 µM |
| NC(=S)Nc1cccc(OCCCCCOc2ccc(Oc3ccccc3)cc2)c1 | Ava5-EG(delta4AB)SEAP | MTS | >1 µM |
| CC(C)N(Cc1cccc(OCCCCCC(=O)OC(=O)O)c1)C(=O)c1ccc(-c2cccc(O)c2)cc1 | RAJI | - | >20 µM |
| O=S(=O)(NCCc1ccc2c(n1)NCCC2)c1cccc2cccnc12 | PBMC | - | 50 µM |
| Cc1ccc(-n2ncc3c(Nc4ccc(F)c(Cl)c4)ncnc32)c(C)c1 | HUH 9B | - | 22 µM |
| NC(=S)Nc1ccc2c(c1)Cc1cc(Br)ccc1-2 | Ava5-EG(delta4AB)SEAP | MTS | >1 µM |
| CCOC(=O)[C@@]1(C)CC[C@]2(C)CC[C@]3(C)C(=CC(=O)[C@@H]4[C@@]5(C)CC/C(=N\OCc6ccc(C(F)(F)F)cc6)C(C)(C)[C@@H]5CC[C@]43C)[C@@H]2C1 | K562 | MTT | 16.14 µM |
| NC(=S)Nc1cccc(OCCCCCOc2ccc(C(=O)Oc3ccccc3)cc2)c1 | Ava5-EG(delta4AB)SEAP | MTS | >1 µM |
| CCOc1ccc(-c2cc(=O)c3cc(C(C)C)ccc3n2C)cc1C | HELA-OHIO | MTT | 5.7 µg/mL |

Repeating the final 6 entries:

compound,cell line,method,result
O=S(=O)(NCCc1ccc2c(n1)NCCC2)c1cccc2cccnc12,PBMC,-,50 µM
Cc1ccc(-n2ncc3c(Nc4ccc(F)c(Cl)c4)ncnc32)c(C)c1,HUH 9B,-,22 µM
NC(=S)Nc1ccc2c(c1)Cc1cc(Br)ccc1-2,Ava5-EG(delta4AB)SEAP,MTS,>1 µM
CCOC(=O)[C@@]1(C)CC[C@]2(C)CC[C@]3(C)C(=CC(=O)[C@@H]4[C@@]5(C)CC/C(=N\OCc6ccc(C(F)(F)F)cc6)C(C)(C)[C@@H]5CC[C@]43C)[C@@H]2C1,K562,MTT,16.14 µM
NC(=S)Nc1cccc(OCCCCCOc2ccc(C(=O)Oc3ccccc3)cc2)c1,Ava5-EG(delta4AB)SEAP,MTS,>1 µM
CCOc1ccc(-c2cc(=O)c3cc(C(C)C)ccc3n2C)cc1C,HELA-OHIO,MTT,5.7 µg/mL